From paper PMC8927147, “Global profiling of regulatory elements in the histone benzoylation pathway” (Nature Communications, 2022)
Values joined by “and” are separate entries in the source; they are usually repeats but may differ in a detail not shown here. Equal entries are not always repeated.

Test system: BY4742 cells
Assay: HPLC-MS/MS analysis of cellular benzoyl-CoA
Format: cell-based, Saccharomyces cerevisiae
Settings: BY4742 cells treated with 10 mM sodium benzoate for 6 h, LC-MS/MS, single experiment

For `CC(C)(COP(=O)(O)OP(=O)(O)OC[C@H]1O[C@@H](n2cnc3c(N)ncnc32)[C@H](O)[C@@H]1OP(=O)(O)O)[C@@H](O)C(=O)NCCC(=O)NCCSC(=O)c1ccccc1` [benzoyl-CoA], the “cellular concentration of benzoyl-CoA” value (MRM, standard curve) was “approximately 0.33 μM” and the “cellular concentration of benzoyl-CoA” value was ~296 ng/mL and ~296.35 ng/mL.
